The list shows a part of the results, in another mix than the full data.
What was measured:
Experiment in all cases: growth AUC relative to DMSO control (median of replicates) (fraction); higher = more growth (less inhibition), active = hit call of the paper
Conditions in all cases: 20 µM; 24 h;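 active = AUC reduced over 20% with Padj below 0.05 in at least 2 of 3 replicates; inactive = otherwise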
[1] = test system: Akkermansia muciniphila
Procedure, shortened: (§1)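 For each compound at 20 µM (1% DMSO), gut bacterial monocultures seeded at OD600 0.05 grew anaerobically in mGAM at 37 °C in round-bottom 96-well plates. Hourly OD600 readings over 24 h gave growth curves whose minimum OD was set to 0. Area under these curves was normalised to the plate median of solvent-only wells, or to row and column medians on the industrial chemical plate. Values are medians of three biological replicates grown on separate days.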

[2] = test system: Bacteroides caccae
Procedure, shortened: as §1

[3] = test system: Bacteroides clarus
Procedure, shortened: as §1

[4] = test system: Bacteroides dorei
Procedure, shortened: as §1

[5] = test system: Bacteroides stercoris
Procedure, shortened: as §1

[6] = test system: Bacteroides thetaiotaomicron
Procedure, shortened: as §1

[7] = test system: Bacteroides uniformis
Procedure, shortened: as §1

[8] = test system: Bifidobacterium longum subsp. longum
Procedure, shortened: as §1

[9] = test system: Clostridium difficile
Procedure, shortened: as §1

[10] = test system: Collinsella aerofaciens
Procedure, shortened: as §1

[11] = test system: Coprococcus comes
Procedure, shortened: as §1

[12] = test system: Escherichia coli ED1a
Procedure, shortened: as §1

[13] = test system: Escherichia coli IAI1
Procedure, shortened: as §1

[14] = test system: Eubacterium rectale
Procedure, shortened: as §1

[15] = test system: Fusobacterium nucleatum subsp. animalis
Procedure, shortened: as §1

[16] = test system: Lactobacillus gasseri
Procedure, shortened: as §1

[17] = test system: Lactobacillus paracasei
Procedure, shortened: as §1

[18] = test system: Odoribacter splanchnicus
Procedure, shortened: as §1

[19] = test system: Parabacteroides distasonis
Procedure, shortened: as §1

[20] = test system: Parabacteroides merdae
Procedure, shortened: as §1

[21] = test system: Roseburia intestinalis
Procedure, shortened: as §1

[22] = test system: Streptococcus salivarius
Procedure, shortened: as §1

Measured: growth AUC

O=C1C2CC=CCC2C(=O)N1SC(Cl)(Cl)C(Cl)Cl (centres undefined)
inactive: [1] 0.918 | [2] 1.02 | [3] 0.992 | [4] 0.989 | [5] 0.972 | [6] 1.04 | [7] 1 | [8] 0.95 | [9] 1.03 | [10] 0.974 | [11] 1.01 | [12] 1.02 | [13] 1.03 | [14] 0.955 | [15] 0.889 | [16] 1.14 | [17] 0.989 | [18] 1 | [19] 0.989 | [20] 0.989 | [21] 1.01 | [22] 0.979

CCCCOP(=O)(OCCCC)OCCCC
inactive: [1] 1.13 | [2] 1 | [3] 1.04 | [4] 1 | [5] 1.14 | [6] 1.03 | [7] 1.02 | [8] 0.958 | [9] 1 | [10] 1.01 | [11] 1 | [12] 1.01 | [13] 0.992 | [14] 1.08 | [15] 1.02 | [16] 0.99 | [17] 1 | [18] 1.07 | [19] 0.955 | [20] 1.03 | [21] 0.943 | [22] 0.987

Source: the supplement of paper PMC12669032
